# Columns and labels:
# [1] = test system: HBsAg antigen-specific IFN-γ; assay: ELISPOT of HBsAg antigen-specific IFN-γ secreted by spleen cells of immunized mice (Examples 2-4); type: in vivo, C57BL/6(N) mice; details: CpG 10 μg/mouse alone with HBsAg 20 + HBcAg 10 μg/mouse; Day 7 after immunization; FIG. 1
# [2] = test system: HBcAg antigen-specific IFN-γ; assay: ELISPOT of HBcAg antigen-specific IFN-γ secreted by spleen cells of immunized mice (Examples 2-4); type: in vivo, C57BL/6(N) mice; details: CpG 10 μg/mouse alone with HBsAg 20 + HBcAg 10 μg/mouse; Day 7 after immunization; FIG. 2
sequence,measurement,setting,value
TCC ATG ACG TTC CTG ATGCT (SEQ ID NO: 10),immune effect: induced production level of HBsAg-specific IFN-γ,[1],lower than those induced by the CpG adjuvants of type A and the CpG adjuvants of type C
same,immune effect: induced production level of HBcAg-specific IFN-γ,[2],lower than those induced by the CpG adjuvants of type A and the CpG adjuvants of type C

# Reference: patent US20230040021A1 (priority 2019, published 2023)
